Literature values, collected in US20210130445A1 (priority 2019, published 2021).

Tested on: female Swiss-Webster mice
Details: cited from earlier work

Substance: abobotulinumtoxinA
- units approximately equal in potency to one unit of onabotulinumtoxinA, as suggested by comparative studies (comparative studies): three to four
- units approximately equal in potency to one unit of BOTOX (onabotulinumtoxinA) (potency unit comparison of commercial formulations): 3 to 5 units
